Measured values from several laboratories, pooled; numbers as filed in NIAID ChemDB.

All rows: tests in culture; agent: HIV-1; method: p24; endpoint: inhibition

Neighbouring rows are from separate reports. Blank or dashed fields: not listed here. Percent inhibition refers to the dose given; in toxicity tests it is the harm to the cells.

compound,strain or isolate,cell line,dose,setting,changes,value
c1cc(CN2CCCNCCNCCCNCC2)ccc1CN1CCCNCCNCCCNCC1,SW38 CLADE C R5,PBMC,0.5 µM,-,-,0%
O=S(=O)(O)c1cc(N=C=S)ccc1CCc1ccc(N=C=S)cc1S(=O)(=O)O,GB8,JM,50 µg/mL,-,-,99.9%
CCC(C)[C@H](NC(=O)[C@H](C(C)C)[C@@H](O)[C@H](O)[C@H](CC1CCCCC1)NC(=O)c1ccccc1SCCCCC[C@@H]1SC[C@@H]2NC(=O)NC21)C(=O)NCc1ccccn1,D34,PBMC,0.001 µM,-,-,2%
COC(=O)[C@@H]1C2CCC(C[C@@H]1OC(=O)c1ccccc1)N2C,IIIB,U-937,25 µg/mL,-,-,<0%
C/C1=C\C=C(\C(C)C)[C@@H](O)C/C(C)=C/CC/C(C)=C/CC1,IIIB,Jurkat cells,0.1 µM,-,-,20%
Nc1nc(Cl)c2ncn(CCCCCB(O)O)c2n1,BaL,PBMC,0.5 µM,-,-,55%
O=C(O)c1cc(SSc2ccc([N+](=O)[O-])c(C(=O)O)c2)ccc1[N+](=O)[O-],-,U-937,2500 µM,-,-,88%
CC(C)c1nc(CN(C)C(=O)N[C@H](C(=O)N[C@@H](Cc2ccccc2)C[C@H](O)[C@H](Cc2ccccc2)NC(=O)OCc2cncs2)C(C)C)cs1,A01 Recombinant wild type,H9,5 µM,-,-,93%
Cc1ccnc2c1NC(=O)c1cccnc1N2C1CC1,Ba-L-85,Macrophage,0.1 µM,-,-,63%
COc1ccc(S(=O)(=O)N(CC(C)C)C[C@@H](O)[C@H](Cc2ccccc2)NC(=O)O[C@H]2CO[C@H]3OCC[C@H]32)cc1,IIIB,H9,0.001 µM,-,-,90%
Nc1nc(Cl)nc2c1ncn2[C@H]1CC[C@@H](CO)O1,LAV,CEM,10 µM,-,-,85%
N[C@@H](CCC(=O)N[C@@H](CS)C(=O)NCC(=O)O)C(=O)O,IIIB,U-937,3000 µM,-,-,20%
CN1CC[C@H](c2c(O)cc(O)c3c(=O)cc(-c4ccccc4Cl)oc23)[C@H](O)C1,IIIB,PM1,0.012 µM,-,-,84%
C[C@H]1/C=C/[C@@]2(C)CC[C@@H](C(C)(C)O)[C@@H]2[C@@H](O)C[C@](C)(O)/C=C/C1,95BRRJ010 X4,PBMC,25 µM,-,-,91%
CC(C)(C)NC(=O)[C@@H]1C[C@@H]2CCCC[C@@H]2CN1C[C@@H](O)[C@H](Cc1ccccc1)NC(=O)[C@H](CC(N)=O)NC(=O)c1ccc2ccccc2n1,BaL,Macrophage + Monocytes/macrophages,0.08 µM,-,-,65%
O=C1N(Cc2ccc(CO)cc2)[C@H](Cc2ccccc2)[C@H](O)[C@@H](O)[C@@H](Cc2ccccc2)N1Cc1ccc(CO)cc1,Clinical isolate C,PBMC,0.18 µM,-,-,90%
CCc1cc(NCc2nc3c(Cl)ccc(Cl)c3o2)c(=O)[nH]c1C,Clinical isolate (RT M41 D67N T215Y),PBMC,0.2 µM,-,RT-M41L D67N T215Y,90%
CC(C)[C@H](NC(=O)N(C)Cc1ccccn1)C(=O)N[C@@H](Cc1ccccc1)[C@H](O)[C@H](O)[C@H](Cc1ccccc1)NC(=O)[C@@H](NC(=O)N(C)Cc1ccccn1)C(C)C,LAI,H9,0.5 µM,-,-,90%
O=c1cc(-c2ccc(O)c(O)c2)oc2cc(O[C@@H]3O[C@H](CO)[C@@H](O)[C@H](O)[C@H]3OS(=O)(=O)O)cc(O)c12,-,MT-2,300 µM,-,-,>95%
Cn1cc(C(=O)O)c(=O)c2cc(F)c(N3CC=C(c4ccccc4)CC3)c(C(F)(F)F)c21,IIIB,MOLT-4/U0(HIV-1(IIIB)) + MOLT-4,0.4 µM,-,-,90%
CCC[C@@]1(CCc2ccccc2)CC(O)=C([C@H](CC)c2cccc(NS(=O)(=O)c3ccc(C(F)(F)F)cn3)c2)C(=O)O1,Isolate 301-1X ritonavir-susceptible,PBMC,0.2 µM,-,Ritonavir-resistant protease,90%
OO,BaL,PBMC,100 µM,-,-,18%
O=C(NCc1ccc(F)cc1)c1nc(N2CCCCS2(=O)=O)c2cccnc2c1O,BaL,PBMC,0.022 µM,-,-,95%
CCC(C)[C@H](NC(=O)[C@H](C(C)C)[C@@H](O)[C@H](O)[C@H](CC1CCCCC1)NC(=O)[C@@H](NC(=O)CCCCC1SC[C@@H]2NC(=O)NC12)C(C)C)C(=O)NCc1ccccn1,D34,PBMC,0.1 µM,-,-,89%
Oc1ccc(/C=C/c2cc(O)cc(O)c2)cc1,EJC-R1,PBMC,5 µM,clinical isolate,-,10%
COc1ccc(CN[C@@H](C(=O)N[C@H](C(=O)NCc2nc3ccccc3[nH]2)C(C)C)[C@H](O)[C@H](Cc2ccccc2)NC(=O)[C@@H](NC(=O)OCc2ccccc2)C(C)(C)C)cc1,D747,Monocytes + Monocyte,0.084 µM,clinical isolate,-,90%
CC(C)=CCOc1cc(NC(=S)c2ccoc2C)ccc1Cl,92US657 Clinical isolate,PBMC,0.00921 µg/mL,-,-,70%
Cc1ccc(-c2ccc3c(c2)C=C(C(=O)Nc2ccc(C[N+](C)(C)C4CCOCC4)cc2)CCC3)cc1,BaL,PBMC,0.0128 µM,-,-,90%
Cc1cn([C@H]2C[C@H](N=[N+]=[N-])[C@@H](CO)O2)c(=O)[nH]c1=O,Primary clinical isolate Rome,PBMC,3.7 µM,-,-,70%
COc1cc(C[C@H](C)[C@H](C)Cc2ccc(O)c(O)c2)ccc1O,MN,PBMC,10 µg/mL,-,-,80%
CC(C)[C@H](NC(=O)c1ccccn1)C(=O)N[C@@H](Cc1ccccc1)[C@H](O)[C@H](O)[C@H](Cc1ccccc1)NC(=O)[C@@H](NC(=O)c1ccccn1)C(C)C,NL4-3,MT-4,30 µM,-,PR-L10F G48V,90%

The first 2 rows once more:

compound | strain or isolate | cell line | dose | setting | changes | value
c1cc(CN2CCCNCCNCCCNCC2)ccc1CN1CCCNCCNCCCNCC1 | SW38 CLADE C R5 | PBMC | 0.5 µM | - | - | 0%
O=S(=O)(O)c1cc(N=C=S)ccc1CCc1ccc(N=C=S)cc1S(=O)(=O)O | GB8 | JM | 50 µg/mL | - | - | 99.9%